Results of unrelated studies side by side (data: NIAID ChemDB).

Shared fields: tests in culture; species: Aspergillus fumigatus

Percent inhibition refers to the dose given; in toxicity tests it is the harm to the cells.

{"structure": "CC(=O)C1=NN(c2ccccc2)C2=Nc3nccc(-c4nn(-c5ccccc5)cc4-c4ccc([N+](=O)[O-])cc4)c3C(=O)C12", "tested at": "1.25 mg/mL", "read by": "agar diffusion / agar", "read-out": "zone", "value": "6 mm"}
{"structure": "CCOC(=O)C[C@H](O)C[C@H](O)CC[C@@H]1[C@@H]2C(=CCC[C@@H]2C(=O)O[C@H](C)CC)C=C[C@@H]1C", "tested at": "5 mg/disc", "read by": "agar diffusion", "read-out": "zone", "value": "0 mm"}
{"structure": "Cc1ccc(-n2cc(-c3ccc([N+](=O)[O-])cc3)c(C(=O)/C=C/N(C)C)n2)cc1", "tested at": "1.25 mg/mL", "read by": "agar diffusion / agar", "read-out": "zone", "value": "0 mm"}
{"structure": "C[C@H]1[C@H](O)[C@@H](C)/C=C/C=C/C=C/C=C/C=C/C=C/C=C/[C@H](O[C@@H]2O[C@H](C)[C@@H](O)[C@H](N)[C@@H]2O)C[C@@H]2O[C@](O)(C[C@@H](O)C[C@@H](O)CC[C@H](O)[C@@H](O)C[C@@H](O)CC(=O)O[C@H]1C)C[C@H](O)[C@H]2C(=O)O", "strain or isolate": "29 isolates", "read-out": "MIC50", "value": "0.5 µg/mL"}
{"structure": "C[C@@H](c1ncncc1F)[C@](O)(Cn1cncn1)c1ccc(F)cc1F", "strain or isolate": "94 isolates", "read-out": "Geometric mean MIC", "value": "0.52 µg/mL"}
{"structure": "O=c1cc(CO)occ1O", "read by": "agar", "strain or isolate": "UAB680", "read-out": "MIC99", "value": ">12800 µM"}
{"structure": "O=C(c1cn2cnnc2nn1)c1nn(-c2ccccc2)cc1-c1ccc([N+](=O)[O-])cc1", "tested at": "2.5 mg/mL", "read by": "agar diffusion / agar", "read-out": "zone", "value": "7 mm"}
{"structure": "CCCCCOc1ccc(-c2ccc(-c3ccc(C(=O)N[C@H]4C[C@@H](O)[C@@H](O)NC(=O)[C@@H]5[C@@H](O)[C@@H](C)CN5C(=O)[C@H]([C@H](C)O)NC(=O)[C@H]([C@H](O)[C@@H](O)c5ccc(O)cc5)NC(=O)[C@@H]5C[C@@H](O)CN5C(=O)[C@H]([C@H](C)O)NC4=O)cc3)cc2)cc1", "strain or isolate": "93-19", "read-out": "MIC", "value": ">50 µg/mL"}
{"structure": "Cc1ccc(C(C)C)c(O)c1", "strain or isolate": "F07", "read-out": "MLC", "value": "0.64 µg/mL"}
{"structure": "COc1ccc(C(=O)Cn2ccnc2)cc1", "tested at": "100 µg/mL", "read by": "broth dilution", "read-out": "inhibition", "value": "72%"}
{"structure": "Cc1ccc(-n2cc(-c3ccc([N+](=O)[O-])cc3)c(-c3ccn[nH]3)n2)cc1", "tested at": "2.5 mg/mL", "read by": "agar diffusion / agar", "read-out": "zone", "value": "7 mm"}
{"structure": "O=C(Cn1cncn1)c1ccc([N+](=O)[O-])cc1", "tested at": "100 µg/mL", "read by": "broth dilution", "read-out": "inhibition", "value": "93%"}
{"structure": "CN(C)/C=C/C(=O)c1nn(-c2ccccc2)cc1-c1ccc([N+](=O)[O-])cc1", "tested at": "1.25 mg/mL", "read by": "agar diffusion / agar", "read-out": "zone", "value": "0 mm"}
{"structure": "CCC(C)n1ncn(-c2ccc(N3CCN(c4ccc(OC[C@H]5CO[C@](Cn6cncn6)(c6ccc(Cl)cc6Cl)O5)cc4)CC3)cc2)c1=O", "mutations": "mpkC", "tested at": "32 µg/mL", "read by": "broth dilution", "strain or isolate": "AF293", "read-out": "inhibition", "value": "99.83%"}
{"structure": "OC(Cn1cncn1)c1ccc(F)cc1F", "tested at": "80 µg/mL", "read by": "broth dilution", "read-out": "inhibition", "value": "38%"}

Repeating the first 2 entries:

| structure | mutations | tested at | read by | strain or isolate | read-out | value |
|---|---|---|---|---|---|---|
| CC(=O)C1=NN(c2ccccc2)C2=Nc3nccc(-c4nn(-c5ccccc5)cc4-c4ccc([N+](=O)[O-])cc4)c3C(=O)C12 | - | 1.25 mg/mL | agar diffusion / agar | - | zone | 6 mm |
| CCOC(=O)C[C@H](O)C[C@H](O)CC[C@@H]1[C@@H]2C(=CCC[C@@H]2C(=O)O[C@H](C)CC)C=C[C@@H]1C | - | 5 mg/disc | agar diffusion | - | zone | 0 mm |

MIC50, MIC90 and the like: level of inhibition, or share of isolates inhibited. Zone: diameter of growth inhibition. Conditions beyond the fields shown may differ between rows. Blank or dashed fields: not listed here.